# Assay results from paper PMC12546632, “The role of cytochrome bc1 inhibitors in future tuberculosis treatment regimens” (Nature Communications, 2025).
# “And” between values parts separate entries of the source, which are not always exact repeats. Identical values can stand only once.
# Test system: clinical isolate, N1283
# Type: in vivo, Mycobacterium tuberculosis
# Details: Study F; Mtb-N1283; 50 mg kg^-1 PO once daily, 2 weeks of treatment
smiles,measurement,value
CCc1nc2ncc(C)cn2c1C(=O)NCc1ccc(N2CCN(S(=O)(=O)C(F)(F)F)C=N2)c(F)c1 [JNJ-4052],"Log10 CFU counts in lung, individual mice",5.15 Log10 CFU counts and 4.83 Log10 CFU counts and 5.30 Log10 CFU counts
